{"source": "patent US20230337678A1", "about": "“NITRIC OXIDE-RELEASING ANTIBACTERIAL COMPOUNDS, FORMULATIONS, AND METHODS PERTAINING THERETO” (KNOW BIO, LLC, priority 2020, published 2023)", "key": {"P. aeruginosa": {"tested_on": "P. aeruginosa", "experiment": "MIC/MBC assays, CLSI method", "type": "cell-based, Pseudomonas aeruginosa"}, "Mycobacterium abscessus": {"tested_on": "Mycobacterium abscessus", "experiment": "MIC/MBC assays, CLSI method", "type": "cell-based"}, "[1]": {"details": "P. aeruginosa N0049, PAK, lab strain, Table 10, unit not given"}, "[2]": {"details": "Pseudomonas aeruginosa ATCC 19143"}, "[3]": {"details": "phenotype ATCC, obligate aerobe"}, "[4]": {"details": "phenotype Not MDR, CarbS, TobraS. Mucoid"}, "[5]": {"details": "phenotype PAK WT, batch VT-20-110"}, "[6]": {"details": "phenotype XDR, TobraR, CarbR. (strain of row r19)"}, "[7]": {"details": "phenotype XDR, TobraR, CarbR. (strain of row r21)"}, "[8]": {"details": "phenotype XDR, TobraR, CarbR. (strain of row r23)"}, "[9]": {"details": "M. abscessus N0010, clinical isolate, replicates 1 and 2"}, "[10]": {"details": "M. abscessus N0010, clinical, Table 14, unit not given"}, "[11]": {"details": "M. abscessus N0016, clinical isolate, replicates 1 and 2"}, "[12]": {"details": "M. abscessus N0016, clinical, Table 14, unit not given"}, "[13]": {"details": "M. abscessus N0017, clinical isolate, replicates 1 and 2, listed as VT-20-110, sodium salt"}, "[14]": {"details": "M. abscessus N0017, clinical, Table 14, unit not given"}, "[15]": {"details": "M. abscessus N0018, clinical isolate, replicates 1 and 2"}, "[16]": {"details": "M. abscessus N0018, clinical, Table 14, unit not given"}}, "note": "“And” between values parts separate entries of the source, which are not always exact repeats. Identical values can stand only once.", "data": [{"compound": "[O-]/[N+](=N\\O)C(/[N+]([O-])=N/O)/[N+]([O-])=N/O", "values": [{"measurement": "MBC, rep 1", "setting": "P. aeruginosa; N0049, PAK WT (Table 9)", "value": 0.125, "unit": "mg/mL"}, {"measurement": "MBC, rep 2", "setting": "P. aeruginosa; N0049, PAK WT (Table 9)", "value": 0.125, "unit": "mg/mL"}, {"measurement": "MIC, rep 1", "setting": "P. aeruginosa; N0049, PAK WT (Table 9)", "value": 0.125, "unit": "mg/mL"}, {"measurement": "MIC, rep 2", "setting": "P. aeruginosa; N0049, PAK WT (Table 9)", "value": 0.0625, "unit": "mg/mL"}, {"measurement": "MBC lower than the MBC of MD3 NO-lib (fold)", "setting": "P. aeruginosa; P. aeruginosa", "value": 64, "unit": "×"}, {"measurement": "MBC, rep 1", "setting": "P. aeruginosa; [1]", "value": 0.125}, {"measurement": "MBC, rep 2", "setting": "P. aeruginosa; [1]", "value": 0.125}, {"measurement": "MIC, rep 1", "setting": "P. aeruginosa; [1]", "value": 0.125}, {"measurement": "MIC, rep 2", "setting": "P. aeruginosa; [1]", "value": 0.0625}, {"measurement": "MBC", "setting": "P. aeruginosa; [2]", "value": 98, "unit": "µg/mL"}, {"measurement": "MIC", "setting": "P. aeruginosa; [2]", "value": 49, "unit": "µg/mL"}, {"measurement": "MBC", "setting": "P. aeruginosa; Pseudomonas aeruginosa ATCC 19143, listed as NCT-19-096, sodium salt", "value": 49, "unit": "µg/mL"}, {"measurement": "concentration resulting in a 3-log reduction of bacteria (MBC)", "setting": "P. aeruginosa; all 9 strains tested (Table 7)", "value": 0.125, "unit": "mg/ml"}, {"measurement": "MBC, rep 1", "setting": "P. aeruginosa; [3]", "value": 0.125, "unit": "mg/mL"}, {"measurement": "MBC, rep 2", "setting": "P. aeruginosa; [3]", "value": 0.125, "unit": "mg/mL"}, {"measurement": "MIC, rep 1", "setting": "P. aeruginosa; [3]", "value": 0.063, "unit": "mg/mL"}, {"measurement": "MIC, rep 2", "setting": "P. aeruginosa; [3]", "value": 0.063, "unit": "mg/mL"}, {"measurement": "MBC, rep 1", "setting": "P. aeruginosa; phenotype MDR, CarbR, TobraR.", "value": 0.125, "unit": "mg/mL"}, {"measurement": "MBC, rep 2", "setting": "P. aeruginosa; phenotype MDR, CarbR, TobraR.", "value": 0.125, "unit": "mg/mL"}, {"measurement": "MIC, rep 1", "setting": "P. aeruginosa; phenotype MDR, CarbR, TobraR.", "value": 0.063, "unit": "mg/mL"}, {"measurement": "MIC, rep 2", "setting": "P. aeruginosa; phenotype MDR, CarbR, TobraR.", "value": 0.125, "unit": "mg/mL"}, {"measurement": "MBC, rep 1", "setting": "P. aeruginosa; [4]", "value": 0.125, "unit": "mg/mL"}, {"measurement": "MBC, rep 2", "setting": "P. aeruginosa; [4]", "value": 0.125, "unit": "mg/mL"}, {"measurement": "MIC, rep 1", "setting": "P. aeruginosa; [4]", "value": 0.063, "unit": "mg/mL"}, {"measurement": "MIC, rep 2", "setting": "P. aeruginosa; [4]", "value": 0.063, "unit": "mg/mL"}, {"measurement": "MBC, rep 1", "setting": "P. aeruginosa; [5]", "value": 0.125, "unit": "mg/mL"}, {"measurement": "MBC, rep 2", "setting": "P. aeruginosa; [5]", "value": 0.125, "unit": "mg/mL"}, {"measurement": "MIC, rep 1", "setting": "P. aeruginosa; [5]", "value": 0.125, "unit": "mg/mL"}, {"measurement": "MIC, rep 2", "setting": "P. aeruginosa; [5]", "value": 0.0625, "unit": "mg/mL"}, {"measurement": "MBC, rep 1", "setting": "P. aeruginosa; phenotype XDR, CarbR, TobraI.", "value": 0.125, "unit": "mg/mL"}, {"measurement": "MBC, rep 2", "setting": "P. aeruginosa; phenotype XDR, CarbR, TobraI.", "value": 0.125, "unit": "mg/mL"}, {"measurement": "MIC, rep 1", "setting": "P. aeruginosa; phenotype XDR, CarbR, TobraI.", "value": 0.063, "unit": "mg/mL"}, {"measurement": "MIC, rep 2", "setting": "P. aeruginosa; phenotype XDR, CarbR, TobraI.", "value": 0.063, "unit": "mg/mL"}, {"measurement": "MBC, rep 1", "setting": "P. aeruginosa; phenotype XDR, CarbR, TobraR.", "value": 0.125, "unit": "mg/mL"}, {"measurement": "MBC, rep 2", "setting": "P. aeruginosa; phenotype XDR, CarbR, TobraR.", "value": 0.125, "unit": "mg/mL"}, {"measurement": "MIC, rep 1", "setting": "P. aeruginosa; phenotype XDR, CarbR, TobraR.", "value": 0.063, "unit": "mg/mL"}, {"measurement": "MIC, rep 2", "setting": "P. aeruginosa; phenotype XDR, CarbR, TobraR.", "value": 0.063, "unit": "mg/mL"}, {"measurement": "MBC, rep 1", "setting": "P. aeruginosa; [6]", "value": 0.125, "unit": "mg/mL"}, {"measurement": "MBC, rep 2", "setting": "P. aeruginosa; [6]", "value": 0.125, "unit": "mg/mL"}, {"measurement": "MIC, rep 1", "setting": "P. aeruginosa; [6]", "value": 0.063, "unit": "mg/mL"}, {"measurement": "MIC, rep 2", "setting": "P. aeruginosa; [6]", "value": 0.063, "unit": "mg/mL"}, {"measurement": "MBC, rep 1", "setting": "P. aeruginosa; [7]", "value": 0.125, "unit": "mg/mL"}, {"measurement": "MBC, rep 2", "setting": "P. aeruginosa; [7]", "value": 0.125, "unit": "mg/mL"}, {"measurement": "MIC, rep 1", "setting": "P. aeruginosa; [7]", "value": 0.063, "unit": "mg/mL"}, {"measurement": "MIC, rep 2", "setting": "P. aeruginosa; [7]", "value": 0.063, "unit": "mg/mL"}, {"measurement": "MBC, rep 1", "setting": "P. aeruginosa; [8]", "value": 0.125, "unit": "mg/mL"}, {"measurement": "MBC, rep 2", "setting": "P. aeruginosa; [8]", "value": 0.125, "unit": "mg/mL"}, {"measurement": "MIC, rep 1", "setting": "P. aeruginosa; [8]", "value": 0.125, "unit": "mg/mL"}, {"measurement": "MIC, rep 2", "setting": "P. aeruginosa; [8]", "value": 0.063, "unit": "mg/mL"}, {"measurement": "MBC", "setting": "Mycobacterium abscessus; [9]", "value": 1, "unit": "mg/mL"}, {"measurement": "MIC", "setting": "Mycobacterium abscessus; [9]", "value": 0.25, "unit": "mg/mL"}, {"measurement": "MBC", "setting": "Mycobacterium abscessus; [10]", "value": 1}, {"measurement": "MIC", "setting": "Mycobacterium abscessus; [10]", "value": 0.25}, {"measurement": "MBC", "setting": "Mycobacterium abscessus; [11]", "value": 1, "unit": "mg/mL"}, {"measurement": "MIC", "setting": "Mycobacterium abscessus; [11]", "value": 0.25, "unit": "mg/mL"}, {"measurement": "MBC", "setting": "Mycobacterium abscessus; [12]", "value": 1}, {"measurement": "MIC", "setting": "Mycobacterium abscessus; [12]", "value": 0.25}, {"measurement": "MBC", "setting": "Mycobacterium abscessus; [13]", "value": "2 mg/mL and 1 mg/mL"}, {"measurement": "MIC", "setting": "Mycobacterium abscessus; [13]", "value": "0.5 mg/mL and 0.25 mg/mL"}, {"measurement": "MBC", "setting": "Mycobacterium abscessus; [14]", "value": 1}, {"measurement": "MIC", "setting": "Mycobacterium abscessus; [14]", "value": 0.25}, {"measurement": "MBC", "setting": "Mycobacterium abscessus; [15]", "value": 1, "unit": "mg/mL"}, {"measurement": "MIC", "setting": "Mycobacterium abscessus; [15]", "value": 0.25, "unit": "mg/mL"}, {"measurement": "MBC", "setting": "Mycobacterium abscessus; [16]", "value": 1}, {"measurement": "MIC", "setting": "Mycobacterium abscessus; [16]", "value": 0.25}, {"measurement": "MBC", "setting": "Mycobacterium abscessus; M. abscessus N0019, clinical isolate, replicates 1 and 2", "value": 1, "unit": "mg/mL"}]}]}
